{"sequences": {"note": "Amino acid sequences for entries named in this document (tags omitted). Residues count along the entry.", "UniProt B4URF0, 1-453": "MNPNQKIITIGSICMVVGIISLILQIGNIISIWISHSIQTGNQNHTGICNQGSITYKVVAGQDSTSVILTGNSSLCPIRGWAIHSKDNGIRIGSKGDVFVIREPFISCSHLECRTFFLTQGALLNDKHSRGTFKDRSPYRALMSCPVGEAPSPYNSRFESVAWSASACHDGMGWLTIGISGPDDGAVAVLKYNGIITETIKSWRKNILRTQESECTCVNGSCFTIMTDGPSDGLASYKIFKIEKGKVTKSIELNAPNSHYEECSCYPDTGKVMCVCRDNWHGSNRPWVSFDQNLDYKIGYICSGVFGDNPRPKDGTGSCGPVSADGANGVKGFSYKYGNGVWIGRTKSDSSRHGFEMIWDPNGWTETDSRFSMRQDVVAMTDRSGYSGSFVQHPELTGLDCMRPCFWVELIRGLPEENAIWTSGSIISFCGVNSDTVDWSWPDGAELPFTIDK"}, "source": "ChEMBL document CHEMBL4837229", "about": "(Eur J Med Chem, 2021)", "biological_target": "Neuraminidase (Influenza A virus, UniProt B4URF0)", "data": [{"smiles": "CCC(CC)O[C@@H]1C=C(C(=O)O)C[C@H](NC(=O)NNC)[C@H]1NC(C)=O", "values": [{"measurement": "IC50", "value": 29.6, "unit": "nM"}]}]}
